The data set in a line: Naphthalene derivatives reacting with Fast Garnet GBC chromogenic indicator laminae in test devices (Experiment XIV). To be noted: naphthalene derivative lamina (from 5 mM solution) and Fast Garnet GBC lamina in test device, water added.

From patent EP0791071B1, “ASSAY FOR PROLINE IMINOPEPTIDASE AND OTHER HYDROLYTIC ACTIVITIES” (LITMUS CONCEPTS, INC., priority 1994, dated 1996) come the findings set out here.

As for `Nc1cc2ccc(S(=O)(=O)O)cc2cc1S(=O)(=O)O` [3-amino-2,7-naphthalene disulfonic acid], the “COLOR SCORE” value turned out to be 0. The figure for `Nc1ccc2cc(S(=O)(=O)O)cc(S(=O)(=O)O)c2c1` [7-amino-1,3-naphthalene disulfonic acid] is 0; for `Nc1c(S(=O)(=O)O)ccc2ccc(S(=O)(=O)O)cc12` [8-amino-2,7-naphthalene disulfonic acid] it is 0.5.
